Measured values: the supplement of paper PMC9931576
Human monoclonal antibodies against the spike receptor-binding domain (heavy:light variable regions). IC50 against pseudoviruses bearing the spike of naturally observed variants; lower = stronger; >10 µg/ml means not reached at the top dose. No active / inactive call. The stated detection limit is 0.0005 µg/ml; values near or below 0.001 µg/ml lie at the floor of the assay.

B1: BD55-6607 (protein)
chain 1: QVQLVQSGAEVKKPGASVKVSCKTSGYFVDSYAIHWLRQAPGHRLEWMGRIDAGSGDTDYSHKFQARVAITRATSASTAYMELSSLTSEDTALYYCAKDYYGSGIYYLDSWGQGTPVTVSS
chain 2: DIQMTQSPSSLSASVGDRITITCRASQSINYYLNWYQQKPGKAPKLLIYAASSLQSGVPSRFSGSGSGTDFTLTISSLQPEDFATYFCHQTYTTLWTFGQGTKVEMK
B2: BD55-6610 (protein)
chain 1: QVQLVQSGAEVKKPGASVKVSCKASGYTFSNYGISWVRQAPGQGLEWMGWISGYSGKTDYAQKFQGRVTLTTDTSPSTAYMELRSLRSDDTAVYYCARDRYSYLYTDYDPFDSWGQGTLVTVSS
chain 2: DVVMTQSPLSLPVTLGQPASISCRSSQSLVYSDGNIFLSWFHQRPGQSPRRLIYKVSNRDSGVPDRFSGSGSGTDFTLKISRVEAEDVGVYYCMQGTHWPRTFGQGTRMEIK
B3: BD55-6614 (protein)
chain 1: QVQLVQSGSELKKPGASVKVSCKASGYTFSGNAINWVRQAPGQGLEWMGWINTDTGNPTYAQGFTGRFVFSLDTSVGTAFLHISNLKAEDTAVYYCARGGGLYDSSGFYEGGLYYHYYMDVWGKGTTVTVSS
chain 2: EVVVTQSPGTLSLSPGETATLSCRASQSVAGSYLAWYQQKPGQAPRLLIFDTSTRATGIPDRFSGSGSGTDFTLTISRLEPEDFAFYYCQQFATSPYTFGQGTKLEIK
B4: BD55-6615 (protein)
chain 1: QVQLVQSGAEVKKPGASVRVACRASGYTFTSQDINWVRQATGQGPEWMGWMNPKSGNTGYAQKFQARLTMTRNTSTSTAYMELSSLRSEDTAVYYCAGYSGSGRHYPDYYYGLDVWGQGTTVTVSS
chain 2: DIQMTQSPSALSASVGDRVTITCRASQSISDYLNWYQQKPGKAPKVLIYAATSLISGVPSRFSGRGSGTDFTLTISSLQPEDFATYYCQQSYSTPPTFGQGTKLEIK
B5: BD55-6619 (protein)
chain 1: QVQLVQSGADVKKPGASVKVSCKASGYTFTNFAMHWVRQAPGQSLEWLGWINPRNGNTRFSQKFQGRVAISRDISATTVYMELSRLRSEDTAVYYCARDHYDSSGYSFPPLYWGQGTQVTVSS
chain 2: DIVMTQSPDSLAVSLGERATINCRSSQSVLLDSDNRSYLAWYQQKPGQPPKLLIYWASTRESGVPDRFSGGGSGTDFTLTISSLQAEDVAVYYCQQYYTTPFYTFGQGTKLEIK
B6: BD55-6622 (protein)
chain 1: QVQLVQSGSELKKPGASVKVSCKASGYTFANYAMHWVRQAPGQGLEWMGWINTNTGNPTYGQGFTGRFVFSLDTSVSTAYLQINSLKAEDTAVYYCARGDRNYYGYEASDIWGQGTMVTVSS
chain 2: DIRLTQSPPSLSASVGDRVTITCRASQSISNYLNWYQQKPGKAPNLLIYAASSLQSGVPSRFSGSGSGTDFSLTISSLQPEDFATYYCQQSYSSHLFTFGGGTTVEI

biological target: SARS-CoV-2 Omicron BA.1 spike pseudovirus; assay: pseudovirus neutralization IC50; higher = weaker neutralization
Method: (§1)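 Single-round VSV luciferase pseudovirus mixed with antibody dilutions for 1 h and put on Huh-7 cells for about a day; IC50 from the dose curve.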

Row | Binder | pseudovirus neutralization IC50 [µg/mL]
1 | B1 | > 10
2 | B2 | 2.76
3 | B3 | > 10
4 | B4 | > 10
5 | B5 | > 10
6 | B6 | 2.89

biological target: SARS-CoV-2 Omicron BA.2 spike pseudovirus; assay: as above
Method: as §1

Row | Binder | pseudovirus neutralization IC50 [µg/mL]
7 | B1 | > 10
8 | B2 | 4.82
9 | B3 | > 10
10 | B4 | > 10
11 | B5 | > 10
12 | B6 | 2.92

biological target: SARS-CoV-2 Omicron BA.2.75 spike pseudovirus; assay: as above
Method: as §1

Row | Binder | pseudovirus neutralization IC50 [µg/mL]
13 | B1 | > 10
14 | B2 | 4.83
15 | B3 | > 10
16 | B4 | > 10
17 | B5 | > 10
18 | B6 | 1.39

biological target: SARS-CoV-2 Omicron BA.5 spike pseudovirus; assay: as above
Method: as §1

Row | Binder | pseudovirus neutralization IC50 [µg/mL]
19 | B1 | > 10
20 | B2 | 3.27
21 | B3 | > 10
22 | B4 | > 10
23 | B5 | > 10
24 | B6 | 2.83

biological target: SARS-CoV-2 Omicron BQ.1.1 spike pseudovirus; assay: as above
Method: as §1

Row | Binder | pseudovirus neutralization IC50 [µg/mL]
25 | B1 | > 10
26 | B2 | 3.8
27 | B3 | > 10
28 | B4 | > 10
29 | B5 | > 10
30 | B6 | > 10

biological target: SARS-CoV-2 Omicron XBB spike pseudovirus; assay: as above
Method: as §1

Row | Binder | pseudovirus neutralization IC50 [µg/mL]
31 | B1 | > 10
32 | B2 | 1.56
33 | B3 | > 10
34 | B4 | > 10
35 | B5 | > 10
36 | B6 | > 10

biological target: SARS-CoV-2 early D614G spike pseudovirus; assay: as above
Method: as §1

Row | Binder | pseudovirus neutralization IC50 [µg/mL]
37 | B1 | > 10
38 | B2 | 1.91
39 | B3 | > 10
40 | B4 | > 10
41 | B5 | > 10
42 | B6 | 4.33
